Compound potency records, mixed from different reports. Data source: NIAID ChemDB in PubChem.

Common to all: whole-cell or culture tests

Blank or dashed fields: not listed here.

SMILES | agent | strain or isolate | cells | method | setting | measure | dose | result
COCCCNC(=S)Nc1ccc2c(c1)Cc1cc(Br)ccc1-2 | Hepatitis C virus | - | Ava5-EG(delta4AB)SEAP | reporter gene / fluorescence | - | EC50 | - | 0.001–1 µM
CC(=O)N[C@H]1[C@H]([C@H](O)[C@H](O)CO)OC(C(=O)O)=C[C@@H]1N=C(N)N | Influenza A virus | Influenza A/Sydney/05/97 (H3N2) | MDCK | - | - | EC50 | - | 0.45 µM
CN[C@H]1CC[C@@H](c2ccc(Cl)c(Cl)c2)c2ccccc21 | Cryptococcus neoformans | Bt50 | - | broth dilution | - | MIC90 | - | 6 µg/mL
CCCCNc1ccc2c(c1)Cc1cc(NC(N)=S)ccc1-2 | Hepatitis C virus | - | Ava5-EG(delta4AB)SEAP | reporter gene / fluorescence | - | EC50 | - | 0.001–1 µM
S=c1oc2ccc(Br)cc2c(=S)n1-c1ccc(Cl)cc1 | Mycobacterium kansasii | My 235/80 | - | - | 14 d | MIC | - | 4 µM
C/C=C/C/C=C/CCC(=O)[C@H]1O[C@H]1C(N)=O | Escherichia coli | UB1005/PJTB3 | - | - | - | MIC | - | 80 µg/mL
Nc1cc(S(=O)(=O)[O-])cc2cc(S(=O)(=O)[O-])ccc12 | Adenovirus | TYPE 3 | Human amnion AV3 cells | cytopathic effect | - | inhibition | 5 µg/mL | 0%
Oc1ccccc1N=Cc1ccc2c(c1)OCO2 | Cryptococcus gattii | 135L/03 | - | - | - | MIC99 | - | 11.3 µg/mL
O=c1[nH]c(=O)n([C@H]2C[C@H](O)[C@@H](CO)O2)cc1I | Varicella zoster virus | OKA | HELF | plaque count | - | inhibition | 0.1 µg/mL | 3%
Cn1cc(C(=O)NCc2ccc(Cl)cc2)c(=O)c2cc(CN3CCOCC3)ccc21 | Varicella zoster virus | RA varicella isolate | HFF | plaque count | - | inhibition | 1.8 µM | 90%
O=S(=O)([O-])c1ccccc1S(=O)(=O)[O-] | Adenovirus | TYPE 3 | Human embryonic lung cells | cytopathic effect | - | inhibition | 5 µg/mL | 0%
Nc1ncnc2c1ncn2C=C1CC1CO | Human cytomegalovirus | VR5611 (ganciclovir-susceptible) | - | plaque count | - | EC90 | - | 5 µM
C[C@H](NC(=O)c1[nH]c(=O)n2c1CN(C(=O)c1ccc(Br)c(Cl)c1)CC2)c1ccccc1 | Hepatitis B virus | - | HepG2.117 | PCR | - | EC50 | - | 0.5–5 µM
Fc1ccc2oc(=S)n(-c3ccc(Cl)c(Cl)c3)c(=S)c2c1 | Mycobacterium kansasii | My 235/80 | - | - | 14 d | MIC | - | 4 µM
Oc1ccccc1N=Cc1ccccc1 | Cryptococcus gattii | ATCC 32608 | - | - | - | MIC99 | - | 16 µg/mL
O=c1oc2ccc(Cl)cc2c(=S)n1-c1ccc(C(F)(F)F)cc1 | Mycobacterium kansasii | 6509/96 | - | - | 21 d | MIC | - | 16 µM
Cc1cc(CCCOc2c(C)cc(-c3noc(C(F)(F)F)n3)cc2C)on1 | Rhinovirus | Isolate 30 | OHIO HELA-I | cytopathic effect / visual reading | - | EC50 | - | >10 µg/mL
Nc1nc(=O)n([C@@H]2O[C@H](CO)[C@@H](O)[C@@H]2F)cc1I | Varicella zoster virus | YS | HELF | plaque count | - | inhibition | 0.1 µg/mL | 86%
COc1ccc([C@@H](C)NC(=O)c2c3n(c(=O)n2-c2ccc(OC)cc2)CCN(C(=O)c2ccc(Br)c(Cl)c2)C3)cc1 | Hepatitis B virus | - | HepG2.117 | PCR | - | EC50 | - | 0.5–5 µM
O=C(NCc1ccc(Cl)cc1)c1c[nH]c2ccc(CCCO)cc2c1=O | Rat cytomegalovirus | - | - | plaque count | - | EC50 | - | 0.3 µM
CCOC(=O)c1c(C)nc(NCCCCNc2ccnc3cc(Cl)ccc23)nc1-c1ccccc1[N+](=O)[O-] | Cryptococcus gattii | ATCC 24065 | - | - | - | MIC99 | - | 8 µg/mL
CCC(C)CC(C)CCCCCCCCC(=O)N[C@H]1C[C@@H](O)[C@H](NCCN)NC(=O)[C@@H]2[C@@H](O)CCN2C(=O)[C@H]([C@H](O)CCN)NC(=O)[C@H]([C@H](O)[C@@H](O)c2ccc(O)cc2)NC(=O)[C@@H]2C[C@@H](O)CN2C(=O)[C@H]([C@@H](C)O)NC1=O | Aspergillus terreus | CBS 594.65 | - | broth dilution | - | MIC | - | 128 µg/mL
Oc1ccccc1N=Cc1ccc(O)c(O)c1O | Cryptococcus neoformans | WP | - | - | - | MIC99 | - | 11.3 µg/mL
C=Cc1cn([C@@H]2O[C@H](CO)[C@@H](O)[C@@H]2O)c(=O)[nH]c1=O | Varicella zoster virus | Ohtomo | HELF | plaque count | - | inhibition | 0.1 µg/mL | 100%
O=C(NCc1ccc(OC2COC2)cc1F)c1c2n(c(=O)n1-c1ccc(OC3CC3)cc1)CCN(C(=O)c1ccc(Br)c(Cl)c1)C2 | Hepatitis B virus | - | HepG2.117 | PCR | - | EC50 | - | 0.1–0.5 µM
CO[C@H]1/C=C/O[C@@]2(C)Oc3c(C)c(O)c4c(O)c(c5c(c4c3C2=O)NC2(CCN(CC(C)C)CC2)N=5)=NC(=O)/C(C)=C\C=C\[C@H](C)[C@H](O)[C@@H](C)[C@@H](O)[C@@H](C)[C@H](OC(C)=O)[C@@H]1C | Mycobacterium avium intracellulare | 9-Feb | - | - | - | MIC | - | 0.5 µg/mL
Cc1nc(NCCCCNc2ccnc3cc(Cl)ccc23)nc(-c2ccccc2[N+](=O)[O-])c1C(=O)OC(C)C | Cryptococcus gattii | ATCC 24065 | - | - | - | MIC99 | - | 8 µg/mL
O=C(O)c1cc(S(=O)(=O)[O-])ccc1O | Adenovirus | TYPE 3 | Human embryonic lung cells | cytopathic effect | - | inhibition | 50 µg/mL | 30%
NC(=S)Nc1ccc2c(c1)Cc1ccccc1-2 | Hepatitis C virus | - | Ava5-EG(delta4AB)SEAP | reporter gene / fluorescence | - | EC50 | - | 0.001–1 µM
O=C(Nc1ccc2cc(S(=O)(=O)[O-])cc(S(=O)(=O)[O-])c2c1)c1ccccc1 | Herpes simplex virus | - | Human amnion AV3 cells | cytopathic effect | - | inhibition | 5 µg/mL | 15%
C=CCc1ccc(O)c(OC)c1 | Candida glabrata | 2965 | - | turbidity | - | MIC90 | - | 500 µg/mL
C/C=C\[C@@H]1C[C@H](C(=O)O)N[C@H]1[C@@H](NC(C)=O)[C@](C)(CCC)OC | Influenza B virus | Memphis/3/89 | MDCK | plaque count | - | EC50 | - | 0.0067 µM
C[C@H](NC(=O)c1c2n(c(=O)n1-c1ccc(OC3CCC3)cc1)CCN(C(=O)c1ccc(Br)c(Cl)c1)C2)c1ccccc1 | Hepatitis B virus | - | HepG2.117 | PCR | - | EC50 | - | 0.1–0.5 µM
NC(=S)Nc1cccc(NCCCc2ccccc2)c1 | Hepatitis C virus | - | Ava5-EG(delta4AB)SEAP | reporter gene / fluorescence | - | EC50 | - | 0.001–1 µM
O=[N+]([O-])c1ccc(C=Nc2ccccc2O)cc1 | Cryptococcus gattii | 196L/03 | - | - | - | MIC99 | - | 16 µg/mL
O=C1C(c2[nH]c3ccc(S(=O)(=O)O)cc3c2O)=Nc2ccc(S(=O)(=O)O)cc21 | Adenovirus | TYPE 3 | Human amnion AV3 cells | cytopathic effect | - | inhibition | 5 µg/mL | 0%
CCO/N=C/c1ccc(OCCC2CCN(c3ccc(Cl)nn3)CC2)cc1 | Rhinovirus | 353 (ICAM-1 receptor group 13) | KB | neutral red | - | EC50 | - | 0.026 µM
S=C(Nc1cccc(OCCCCCOc2ccc(-c3ccccc3)cc2)c1)N1CCCCC1 | Hepatitis C virus | - | Ava5-EG(delta4AB)SEAP | reporter gene / fluorescence | - | EC50 | - | 0.001–1 µM
O=c1[nH]c(=O)n([C@H]2C[C@H](O)[C@@H](CO)O2)cc1/C=C/Br | Varicella zoster virus | HIRAI | HELF | plaque count | - | inhibition | 0.01 µg/mL | 100%
O=S(=O)([O-])c1ccc2c(S(=O)(=O)[O-])cc(S(=O)(=O)[O-])cc2c1 | Rhinovirus | - | Human amnion AV3 cells | cytopathic effect | - | inhibition | 50 µg/mL | 10%
O=c1[nH]c(=O)n([C@@H]2O[C@H](CO)[C@@H](O)[C@@H]2O)cc1/C=C/Br | Varicella zoster virus | Kawaguchi | HELF | plaque count | - | inhibition | 0.01 µg/mL | 100%
Cc1ccc(-n2c(=S)oc3ccc(C)cc3c2=S)cc1 | Mycobacterium kansasii | 6509/96 | - | - | 14 d | MIC | - | 2 µM

Repeating the final 4 entries:

SMILES | agent | strain or isolate | cells | method | setting | measure | dose | result
O=c1[nH]c(=O)n([C@H]2C[C@H](O)[C@@H](CO)O2)cc1/C=C/Br | Varicella zoster virus | HIRAI | HELF | plaque count | - | inhibition | 0.01 µg/mL | 100%
O=S(=O)([O-])c1ccc2c(S(=O)(=O)[O-])cc(S(=O)(=O)[O-])cc2c1 | Rhinovirus | - | Human amnion AV3 cells | cytopathic effect | - | inhibition | 50 µg/mL | 10%
O=c1[nH]c(=O)n([C@@H]2O[C@H](CO)[C@@H](O)[C@@H]2O)cc1/C=C/Br | Varicella zoster virus | Kawaguchi | HELF | plaque count | - | inhibition | 0.01 µg/mL | 100%
Cc1ccc(-n2c(=S)oc3ccc(C)cc3c2=S)cc1 | Mycobacterium kansasii | 6509/96 | - | - | 14 d | MIC | - | 2 µM

Neighbouring rows are from separate reports. Two numbers with a dash give a range or band. ECn: concentration that inhibits the pathogen or its effect by n%. Percent inhibition refers to the dose given; in toxicity tests it is the harm to the cells. MIC50, MIC90 and the like: level of inhibition, or share of isolates inhibited.